A mixed list of measured activities; the numbers were collected in NIAID ChemDB.

Shared fields: tests in culture; agent: Hepatitis B virus; read by: PCR; endpoint: EC50

Neighbouring rows are from separate reports. Two numbers with a dash give a range or band. An empty or dashed field is not shown. ECn is the concentration giving n% inhibition of infection, replication or growth.

| compound | conditions | cells | result |
|---|---|---|---|
| CNC(=O)c1ccc(-n2c(=O)c3c(n4ncc(Cc5ccccc5)c24)CN(C(=O)c2ccc(Cl)c(Cl)c2)CC3)cc1 | 3 d | HepG2.117 | <0.1 µM |
| C#C[C@@H](NC(=O)C(=O)c1c(C)c(C(=O)Nc2ccc(F)c(C#N)c2)n(C)c1C)OC | - | HepG2.2.15 | 0.001–0.0099 µM |
| CC(C)Oc1ccc(-n2c(-c3ncc(-c4ccccc4)o3)c3n(c2=O)CCN(C(=O)c2ccc(Br)c(Cl)c2)C3)cc1 | - | HepG2.117 | >5 µM |
| Cn1nc2cc(NC(=O)C(=O)C3CC3)ccc2c1C(=O)Nc1ccc(F)c(Cl)c1 | - | HepAD38 | >1000 µM |
| Cn1cnc(-c2ccc([C@H]3CN(C(=O)Nc4ccc(F)c(Cl)c4)CCS3(=O)=O)s2)c1 | - | HepG2.117 | 0.5–5 µM |
| CNC(=O)c1ccc(-n2c(=O)c3c(n4ncc(NCc5ccc(F)cc5)c24)CN(C(=O)c2ccc(Br)c(C#N)c2)CC3)cc1 | 3 d | HepG2.117 | 0.1–0.5 µM |
| Cn1nc2cc(NS(=O)(=O)NC3CN(Cc4ccccc4)C3)ccc2c1C(=O)Nc1ccc(F)c(Cl)c1 | - | HepAD38 | >1000 µM |
| C[C@@H](NC(=O)c1c2n(c(=O)n1-c1ccccc1)CCN(C(=O)c1ccc(Br)c(Cl)c1)C2)c1ccccc1 | - | HepG2.117 | 0.5–5 µM |
| O=C(NCCc1ccccc1)C1CN(C(=O)c2ccc(Br)c(Cl)c2)CCS1(=O)=O | - | HepG2.117 | 0.5–5 µM |
| Cc1cccnc1-n1cc(S(=O)(=O)Nc2ccc3c(C(=O)Nc4ccc(F)c(Cl)c4)n(C)nc3c2)cn1 | - | HepAD38 | <100 µM |
| CNC(=O)c1ccc(-n2c(=O)c3c(n4ncc(Cc5ccc(OC(F)(F)F)cc5)c24)CN(C(=O)c2ccc(Cl)c(Cl)c2)CC3)cc1 | 3 d | HepG2.117 | 0.1–0.5 µM |
| C#C[C@@](CO)(NC(=O)C(=O)c1c(C)c(C(=O)Nc2ccc(F)c(C(F)(F)F)c2)n(C)c1C)C1CC1 | - | HepG2.2.15 | 0.001–0.0099 µM |
| CN(C)c1ccc(-n2cc(S(=O)(=O)Nc3ccc4c(C(=O)Nc5ccc(F)c(Cl)c5)n(C)nc4c3)cn2)cn1 | - | HepAD38 | 100–1000 µM |
| COc1ccc(-n2c(C(=O)N[C@H](c3ccccc3)C3CC3)c3n(c2=O)CCN(C(=O)c2ccc(Br)c(Cl)c2)C3)cc1 | - | HepG2.117 | 0.1–0.5 µM |
| CN(C1CC1)S(=O)(=O)Nc1ccc2c(C(=O)Nc3ccc(F)c(Cl)c3)n(C)nc2c1 | - | HepAD38 | 100–1000 µM |
| C[C@@]1(C(=O)NCc2ccccc2)CN(C(=O)c2ccc(Br)c(Cl)c2)CCS1(=O)=O | - | HepG2.117 | 0.1–0.5 µM |
| COc1ccc(-n2c(-c3ncc(Cc4ccccc4)o3)c3n(c2=O)CCN(C(=O)c2ccc(Br)c(Cl)c2)C3)cc1 | - | HepG2.117 | 0.5–5 µM |
| Cn1nc2ccc(NCc3ccccc3)cc2c1C(=O)Nc1ccc(F)c(Cl)c1 | - | HepAD38 | >1000 µM |
| C=C[C@@H](NC(=O)C(=O)c1c(C)c(C(=O)Nc2ccc(F)c(C#N)c2)n(C)c1C)C(F)(F)F | - | HepG2.2.15 | <0.001 µM |
| CCC(NS(=O)(=O)Nc1ccc2c(C(=O)Nc3ccc(F)c(Cl)c3)n(C)nc2c1)c1ccccn1 | - | HepAD38 | 100–1000 µM |
| C[C@@H](Oc1ccc(CNC(=O)c2c3n(c(=O)n2-c2ccc(OC4CC4)cc2)CCN(C(=O)c2ccc(Br)c(Cl)c2)C3)c(F)c1)C(N)=O | - | HepG2.117 | 0.1–0.5 µM |
| Cn1nc2cc(NS(=O)(=O)NCC3CNC3)ccc2c1C(=O)Nc1ccc(F)c(Cl)c1 | - | HepAD38 | >1000 µM |
| O=C(c1ccc(Br)c(Cl)c1)N1CCS(=O)(=O)[C@](F)(C(=O)NCc2ccccc2)C1 | - | HepG2.117 | <0.1 µM |
| C[C@H](NC(=O)c1c2n(c(=O)n1-c1ccccc1)CCN(C(=O)c1ccc(Br)c(Cl)c1)C2)c1ccccc1 | - | HepG2.117 | 0.5–5 µM |
| CC(C)CC(=O)Nc1cnn2c3c(c(=O)n(-c4ccccc4)c12)CCN(C(=O)c1ccc(Cl)c(Cl)c1)C3 | 3 d | HepG2.117 | >5 µM |
| C=C[C@H](NC(=O)C(=O)c1c(C)c(C(=O)Nc2ccc(F)c(C#N)c2)n(C)c1C)C(F)(F)F | - | HepG2.2.15 | <0.001 µM |
| COc1ccc(-n2c(C(=O)CNc3ccc(C(N)=O)cc3)c3n(c2=O)CCN(C(=O)c2ccc(Cl)c(Cl)c2)C3)cc1 | - | HepG2.117 | >5 µM |
| C#CCNC(=O)C(=O)c1c(F)c(C(=O)Nc2ccc(F)c(C#N)c2)n(C)c1Br | - | HepG2.2.15 | 0.01–0.099 µM |
| COCCOc1ccc(-n2c(C(=O)NCc3ccccc3)c3n(c2=O)CCN(C(=O)c2ccc(Br)c(Cl)c2)C3)cc1 | - | HepG2.117 | 0.1–0.5 µM |
| Cn1nc2cc(NS(=O)(=O)c3cnn(-c4ncccc4Cl)c3)ccc2c1C(=O)Nc1ccc(F)c(Cl)c1 | - | HepAD38 | <100 µM |
| C#C[C@H](NC(=O)C(=O)c1c(C)c(C(=O)Nc2ccc(F)c(C#N)c2)n(C)c1C)C1CC1 | - | HepG2.2.15 | <0.001 µM |

The last 3 rows once more:

COCCOc1ccc(-n2c(C(=O)NCc3ccccc3)c3n(c2=O)CCN(C(=O)c2ccc(Br)c(Cl)c2)C3)cc1 ; cells: HepG2.117 ; result: 0.1–0.5 µM
Cn1nc2cc(NS(=O)(=O)c3cnn(-c4ncccc4Cl)c3)ccc2c1C(=O)Nc1ccc(F)c(Cl)c1 ; cells: HepAD38 ; result: <100 µM
C#C[C@H](NC(=O)C(=O)c1c(C)c(C(=O)Nc2ccc(F)c(C#N)c2)n(C)c1C)C1CC1 ; cells: HepG2.2.15 ; result: <0.001 µM